Data reported in US20070249501A1 (priority 2004, published 2007).

Columns and labels:
[1] = system: Fusarium oxysporum f. sp. radicis-lycopersici (FORL); settings: 30 mg/Kg (ppm, w/w); 7 days; preliminary studies
Sclerotium rolfsii = test: Viability of Sclerotium sclerotia in treated soil (BromoCresol Green method); type: cell-based; settings: 30 mg/Kg (ppm, w/w); 7 days; preliminary studies

In the case of `O=[N+]([O-])C(Br)Br`, the “control of FORL in soil (percent survival, FIG. 6)” value [1] is reported as “effective in controlling soil-borne fungi” and the “control of S. rolfosii in soil (percent survival, FIG. 6)” value (Sclerotium rolfsii) is reported as “effective in controlling soil-borne fungi”.
